PubChem BioAssay AID504761 | Drosophila RNAi Screening Center | 2011

Aim: 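Fly genes whose silencing reduces dengue virus type 2 infection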 (primary screen)
Cell system: D.Mel-2 cells from Drosophila
Reagents: long dsRNA against Drosophila genes
Challenge: infection with dengue virus type 2; dose and infection time not stated
Measured: 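Cells stained for dengue envelope protein and imaged; percent of infected cells per well on duplicate plates, ranked by infection, with stained nuclei counted for cell number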
Reading the numbers: infection score: higher = more virus-infected cells; cell count: higher = more cells in the well
Rule for the call: 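Low infection ranks in the two replicates (chance level up to 0.065) followed by a retest with a 1.5-fold or larger significant decrease, p below 0.05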
Calls: active = confirmed: knock-down lowers infection; inactive = not picked or not confirmed
In all, the deposit lists about 22,000 reagents; below is an unselected part of those with a known target gene and a result. Of all reagents, 116 (0.52%) are marked active. 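Calls depend on retest data that are not deposited; infection was ranked per plate without normalising between plates; the unit of the infection score is not given.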 Raw values vary from plate to plate and are shown uncorrected. A number with no mark means an inactive call. The numbers tell different reagents against one gene apart. Not given: the amount of reagent, the time to read-out.

gene | reagent no. | infection score, replicate 1 | infection score, replicate 2 | cell count, replicate 1 | cell count, replicate 2
CG16957 | 1 | 2.3 | 3.27 | 6608 | 6566
Sgf29 | 1 | 22.3 | 3.81 | 6765 | 7332
CG11226 | 1 | 8.03 | 2.89 | 6465 | 6542
CG13806 | 1 | 2.97 | 10.8 | 7074 | 6387
mon2 | 1 | 4.39 | 5.85 | 5700 | 6191
lic | 1 | 1.52 | 0.91 | 6693 | 6713
Dus2 | 1 | 4.71 | 3.51 | 6111 | 6093
rho-6 | 1 | 2.66 | 19.6 | 1276 | 5937
rho-6 | 2 | 11.5 | 4.73 | 5829 | 529
CG11000 | 1 | 11.8 | 5.67 | 5121 | 6151
CG11000 | 2 | 2.48 | 4.69 | 6897 | 5927
Vti1a | 1 | 17.1 | 5.12 | 5069 | 1505
CycE | 1 | 35.3 | 22.9 | 2280 | 2375
CycE | 2 | 3.19 | 3.9 | 3826 | 4278
CG7715 | 1 | 1.33 | 5.59 | 525 | 5819
CG31810 | 1 | 2.09 | 0.41 | 6447 | 5895
Strump | 1 | 1.53 | 4.34 | 6160 | 6135
PGRP-LA | 1 | 1.69 | 3.26 | 6279 | 5768
PGRP-LA | 2 | 2.17 | 3.95 | 6170 | 5905
CG17195 | 1 | 1.95 | 9.23 | 6312 | 2752
CG17195 | 2 | 3.21 | 5.5 | 6361 | 6291
CG14857 | 1 | 3.93 | 14.5 | 6689 | 6298
OSCP1 | 1 | 17 | 5.86 | 6318 | 6932
Rpi | 1 | 3.92 | 7.88 | 6476 | 6332
Alp2 | 1 | 25.2 | 18.6 | 5529 | 5967
Alp2 | 2 | 7.33 | 2.37 | 5823 | 5526
rudhira | 1 | 1.77 | 3.88 | 6505 | 6835
rudhira | 2 | 1.12 | 4.51 | 5737 | 6761
rudhira | 3 | 8.3 | 4.23 | 1121 | 1348
Eig71Ec | 1 | 2.46 | 5.72 | 6212 | 6345
CG10803 | 1 | 19.7 | 4.45 | 5684 | 6713
CG10803 | 2 | 7.36 | 6.11 | 5341 | 5795
CG4783 | 1 | 3.69 | 0.58 | 6685 | 6525
fs(1)M3 | 1 | 2.29 | 5.13 | 6629 | 6825
fs(1)M3 | 2 | 0.26 | 20.8 | 385 | 6193
SmB | 1 | 28.1 | 35.3 | 3020 | 3666
SmB | 2 | 12 | 5.41 | 4335 | 4507
aqrs | 1 | 5.18 | – | 6835 | 415
ppk | 1 | 8.4 | 1.29 | 4653 | 6532
ppk | 2 | 6.16 | 6.41 | 6494 | 6490
Csl4 | 1 | 25.7 | 3.28 | 5918 | 1708
Csl4 | 2 | 4.53 | 2.87 | 6403 | 6444
CG31793 | 1 | 2.62 | 9.41 | 6630 | 6528
CG31793 | 2 | 2.86 | 4.7 | 6321 | 6342
Obp44a | 1 | 11.8 | 3.74 | 6290 | 989
Obp44a | 2 | 19.6 | 3.5 | 6200 | 6948
sqz | 1 | 7 | 7.03 | 6301 | 6654
sqz | 2 | – | 23.4 | 439 | 6319
CG10799 | 1 | 17.8 | 14.4 | 5344 | 6348
CG14309 | 1 | 6.88 | 18.9 | 6704 | 6020
mri | 1 | 8.11 | 10.8 | 5712 | 4086
mri | 2 | 7.47 | 11.5 | 6452 | 6782
CG12929 | 1 | 2.45 | 8.72 | 6437 | 6549
gl | 1 | 6.83 | 2.34 | 6791 | 6238
CG30127 (retired record) | 1 | 0.6 | 0.81 | 6337 | 5908
CG30127 (retired record) | 2 | 0.83 | 0.19 | 6016 | 5727
CG30127 (retired record) | 3 | 3.41 | 2.89 | 6450 | 5703
Rbfox1 | 1 | 12 | 12.1 | 6231 | 6182
Rbfox1 | 2 | 6.13 | 18.9 | 5501 | 6377
Rbfox1 | 3 | 3.09 | 5.91 | 5499 | 6147
Rbfox1 | 4 | 3.34 | 4.55 | 6326 | 6155
CG15423 | 1 | 5.29 | 1.7 | 6501 | 6873
CG15423 | 2 | – | 1.92 | 348 | 832
fidipidine | 1 | 10.8 | 15.3 | 2347 | 3103
fidipidine | 2 | 1.52 | 2.82 | 6135 | 6240
Ccdc114 | 1 | 2.93 | 6.79 | 6340 | 6299
CG10764 | 1 | 7.29 | 16 | 6490 | 6531
TwdlS | 1 | 8.13 | 1 | 4229 | 603
CG4887 | 1 | 13.2 | 1.23 | 6310 | 6605
CG4887 | 2 | 4.07 | 8 | 5672 | 5926
CG4887 | 3 | 4 | 3.39 | 6378 | 6130
CG5937 | 1 | 6.79 | 2.92 | 4949 | 5984
CG5937 | 2 | 3.52 | 2.01 | 6081 | 6132
Rab3-GAP | 1 | 13.6 | 21.7 | 6523 | 6291
Rab3-GAP | 2 | 16.5 | 3.3 | 5715 | 848
